Key:
[1] = tested on: Pseudomonas aeruginosa ATCC 15442; experiment: Bactericidal activity, EN 1276 dilution-neutralisation
[2] = tested on: Escherichia coli ATCC 10536; experiment: as above
[3] = tested on: Legionella pneumophila ATCC 33152; experiment: as above
[4] = tested on: Staphylococcus aureus ATCC 6538; experiment: as above
[5] = tested on: Enterococcus hirae ATCC 8043; experiment: as above
[6] = tested on: poliovirus type 1 ATCC VR-192; experiment: Virucidal activity, ASTM E-1053-97, Vero cells
[7] = tested on: Mycobacterium terrae ATCC 15755; experiment: Mycobactericidal activity, carrier disk ASTM E-2197-02
[8] = tested on: Candida albicans ATCC 10321; experiment: Fungicidal activity, EN 1275
[9] = tested on: Aspergillus niger ATCC 16404; experiment: Fungicidal activity, EN 1275
[10] = within 15 and 30 minutes at 0.06% in hard water
[11] = within 5 minutes at 0.125% in hard water
[12] = 0.25% in cell culture medium, exposure time 15 min

methyl ethyl ketone peroxide
Na: number of CFU/ml in the assay mixture ([1]; 0.06% (v/v), t = 5 min): 0.2 × 10^2 CFU/ml | Na: number of CFU/ml in the assay mixture ([1]; 0.06% (v/v), t = 15 min): 0 CFU/ml | R: Reduction of viability ([1]; 0.06% (v/v), t = 15 min): ≧10^6 | Na: number of CFU/ml in the assay mixture ([1]; 0.06% (v/v), t = 30 min): 0 CFU/ml | R: Reduction of viability ([1]; 0.06% (v/v), t = 30 min): ≧10^6 | R: Reduction of viability ([1]; 0.125% (v/v), t = 5 min): ≧10^6 | Na: number of CFU/ml in the assay mixture ([1]; 0.125% (v/v), t = 15 min): 0 CFU/ml | R: Reduction of viability ([1]; 0.125% (v/v), t = 15 min): ≧10^6 | Na: number of CFU/ml in the assay mixture ([1]; 0.125% (v/v), t = 30 min): 0 CFU/ml | R: Reduction of viability ([1]; 0.125% (v/v), t = 30 min): ≧10^6 | R: Reduction of viability ([1]; 0.25% (v/v), t = 5 min): ≧10^6 | Na: number of CFU/ml in the assay mixture ([1]; 0.25% (v/v), t = 15 min): 0 CFU/ml | R: Reduction of viability ([1]; 0.25% (v/v), t = 15 min): ≧10^6 | Na: number of CFU/ml in the assay mixture ([1]; 0.25% (v/v), t = 30 min): 0 CFU/ml | R: Reduction of viability ([1]; 0.25% (v/v), t = 30 min): ≧10^6 | Na: number of CFU/ml in the assay mixture ([2]; 0.06% (v/v), t = 5 min): 6.6 × 10^2 CFU/ml | R: Reduction of viability ([2]; 0.06% (v/v), t = 5 min): 0.3 × 10^5 | R: Reduction of viability ([2]; 0.06% (v/v), t = 15 min): ≧10^6 | Na: number of CFU/ml in the assay mixture ([2]; 0.06% (v/v), t = 30 min): 0 CFU/ml | R: Reduction of viability ([2]; 0.06% (v/v), t = 30 min): ≧10^6 | Na: number of CFU/ml in the assay mixture ([2]; 0.125% (v/v), t = 5 min): 0 CFU/ml | R: Reduction of viability ([2]; 0.125% (v/v), t = 5 min): ≧10^6 | Na: number of CFU/ml in the assay mixture ([2]; 0.125% (v/v), t = 15 min): 0 CFU/ml | R: Reduction of viability ([2]; 0.125% (v/v), t = 15 min): ≧10^6 | Na: number of CFU/ml in the assay mixture ([2]; 0.125% (v/v), t = 30 min): 0 CFU/ml | R: Reduction of viability ([2]; 0.125% (v/v), t = 30 min): ≧10^6 | R: Reduction of viability ([2]; 0.25% (v/v), t = 5 min): ≧10^6 | Na: number of CFU/ml in the assay mixture ([2]; 0.25% (v/v), t = 15 min): 0 CFU/ml | R: Reduction of viability ([2]; 0.25% (v/v), t = 15 min): ≧10^6 | bactericidal activity (conclusion) [2, 10]: bactericidal activity | bactericidal activity (conclusion) [2, 11]: bactericidal activity | bactericidal activity (conclusion) [3, 10]: bactericidal activity | bactericidal activity (conclusion) [3, 11]: bactericidal activity | Na: number of CFU/ml in the assay mixture ([4]; 0.06% (v/v), t = 5 min): 11 × 10^2 CFU/ml | R: Reduction of viability ([4]; 0.06% (v/v), t = 5 min): 0.1 × 10^5 | Na: number of CFU/ml in the assay mixture ([4]; 0.06% (v/v), t = 15 min): 11.7 × 10^2 CFU/ml | Na: number of CFU/ml in the assay mixture ([4]; 0.06% (v/v), t = 30 min): 0.15 × 10^2 CFU/ml | R: Reduction of viability ([4]; 0.06% (v/v), t = 30 min): 10 × 10^5 | R: Reduction of viability ([4]; 0.125% (v/v), t = 5 min): 0.5 × 10^5 | Na: number of CFU/ml in the assay mixture ([4]; 0.125% (v/v), t = 15 min): 0.1 × 10^2 CFU/ml | R: Reduction of viability ([4]; 0.125% (v/v), t = 15 min): 15 × 10^5 | Na: number of CFU/ml in the assay mixture ([4]; 0.125% (v/v), t = 30 min): 0 CFU/ml | Na: number of CFU/ml in the assay mixture ([4]; 0.25% (v/v), t = 5 min): 0 CFU/ml | R: Reduction of viability ([4]; 0.25% (v/v), t = 5 min): ≧10^6 | Na: number of CFU/ml in the assay mixture ([4]; 0.25% (v/v), t = 15 min): 0 CFU/ml | R: Reduction of viability ([4]; 0.25% (v/v), t = 15 min): ≧10^6 | Na: number of CFU/ml in the assay mixture ([4]; 0.25% (v/v), t = 30 min): 0 CFU/ml | bactericidal activity (conclusion) ([4]; within 30 minutes at 0.06% in hard water): bactericidal activity | Na: number of CFU/ml in the assay mixture ([5]; 0.06% (v/v), t = 15 min): 24.8 × 10^2 CFU/ml | R: Reduction of viability ([5]; 0.06% (v/v), t = 15 min): 0.09 × 10^5 | Na: number of CFU/ml in the assay mixture ([5]; 0.06% (v/v), t = 30 min): 20.5 × 10^2 CFU/ml | R: Reduction of viability ([5]; 0.06% (v/v), t = 30 min): 0.1 × 10^5 | Na: number of CFU/ml in the assay mixture ([5]; 0.125% (v/v), t = 5 min): 17.8 × 10^2 CFU/ml | R: Reduction of viability ([5]; 0.125% (v/v), t = 5 min): 0.1 × 10^5 | Na: number of CFU/ml in the assay mixture ([5]; 0.125% (v/v), t = 15 min): 6.9 × 10^2 CFU/ml | R: Reduction of viability ([5]; 0.125% (v/v), t = 15 min): 0.3 × 10^5 | Na: number of CFU/ml in the assay mixture ([5]; 0.125% (v/v), t = 30 min): 0 CFU/ml | R: Reduction of viability ([5]; 0.125% (v/v), t = 30 min): ≧10^6 | Na: number of CFU/ml in the assay mixture ([5]; 0.25% (v/v), t = 5 min): 0.1 × 10^2 CFU/ml | R: Reduction of viability ([5]; 0.25% (v/v), t = 5 min): 24 × 10^5 | Na: number of CFU/ml in the assay mixture ([5]; 0.25% (v/v), t = 15 min): 0 CFU/ml | Na: number of CFU/ml in the assay mixture ([5]; 0.25% (v/v), t = 30 min): 0 CFU/ml | R: Reduction of viability ([5]; 0.25% (v/v), t = 30 min): ≧10^6 | bactericidal activity (conclusion) ([5]; within 5 and 15 minutes at 0.25% in hard water): bactericidal activity | bactericidal activity (conclusion) ([5]; within 30 minutes at 0.125% in hard water): bactericidal activity | CPE: cytopathic effect [6, 12]: Absence of CPE | Reduction (log10) [6, 12]: Reduction (log10): ≧5 | reduction (conclusion) ([6]; 0.25% within 15 minutes): > 1×10^4 TCID50 | virucidal effect (conclusion) ([6]; 0.25% within 15 minutes): absolute virucidal effect | mycobactericidal effect (conclusion) ([7]; 1% within 15 and 30 minutes): mycobactericidal effect | mean number of colony forming units per ml recovered after exposure of 10 test carrier disks ([7]; peroxide 0.5%, exposure time 5 min): 175 CFU/ml | mean number of colony forming units per ml recovered after exposure of 10 test carrier disks ([7]; peroxide 0.5%, exposure time 15 min): 100 CFU/ml | mean number of colony forming units per ml recovered after exposure of 10 test carrier disks ([7]; peroxide 0.5%, exposure time 30 min): 90 CFU/ml | mean number of colony forming units per ml recovered after exposure of 10 test carrier disks ([7]; peroxide 1%, exposure time 5 min): 160 CFU/ml | mean number of colony forming units per ml recovered after exposure of 10 test carrier disks ([7]; peroxide 1%, exposure time 15 min): 0 CFU/ml | mean number of colony forming units per ml recovered after exposure of 10 test carrier disks ([7]; peroxide 1%, exposure time 30 min): 0 CFU/ml | mean number of colony forming units per ml recovered after exposure of 10 test carrier disks ([7]; peroxide 2%, exposure time 5 min): 0 CFU/ml | mean number of colony forming units per ml recovered after exposure of 10 test carrier disks ([7]; peroxide 2%, exposure time 15 min): 0 CFU/ml | mean number of colony forming units per ml recovered after exposure of 10 test carrier disks ([7]; peroxide 2%, exposure time 30 min): 0 CFU/ml | mean number of colony forming units per ml recovered after exposure of 10 test carrier disks ([7]; peroxide 4%, exposure time 5 min): 0 CFU/ml | mean number of colony forming units per ml recovered after exposure of 10 test carrier disks ([7]; peroxide 4%, exposure time 15 min): 0 CFU/ml | mean number of colony forming units per ml recovered after exposure of 10 test carrier disks ([7]; peroxide 4%, exposure time 30 min): 0 CFU/ml | Na: number of CFU/ml in the assay mixture ([8]; 0.06% (v/v), t = 5 min): 0.6 × 10^2 CFU/ml | R: Reduction of viability ([8]; 0.06% (v/v), t = 5 min): 2.5 × 10^4 | Na: number of CFU/ml in the assay mixture ([8]; 0.06% (v/v), t = 15 min): 0 CFU/ml | R: Reduction of viability ([8]; 0.06% (v/v), t = 15 min): ≧10^5 | Na: number of CFU/ml in the assay mixture ([8]; 0.06% (v/v), t = 30 min): 0 CFU/ml | Na: number of CFU/ml in the assay mixture ([8]; 0.125% (v/v), t = 5 min): 0.1 × 10^2 CFU/ml | Na: number of CFU/ml in the assay mixture ([8]; 0.125% (v/v), t = 15 min): 0 CFU/ml | R: Reduction of viability ([8]; 0.125% (v/v), t = 15 min): ≧10^5 | R: Reduction of viability ([8]; 0.125% (v/v), t = 30 min): ≧10^5 | Na: number of CFU/ml in the assay mixture ([8]; 0.25% (v/v), t = 5 min): 0 CFU/ml | R: Reduction of viability ([8]; 0.25% (v/v), t = 5 min): ≧10^5 | R: Reduction of viability ([8]; 0.25% (v/v), t = 15 min): ≧10^5 | Na: number of CFU/ml in the assay mixture ([8]; 0.25% (v/v), t = 30 min): 0 CFU/ml | R: Reduction of viability ([8]; 0.25% (v/v), t = 30 min): ≧10^5 | fungicidal activity (conclusion) ([8]; norm EN 1275): fungicidal activity | Na: number of CFU/ml in the assay mixture ([9]; 0.06% (v/v), t = 5 min): 0.4 × 10^2 CFU/ml | R: Reduction of viability ([9]; 0.06% (v/v), t = 5 min): 1.3 × 10^4 | R: Reduction of viability ([9]; 0.06% (v/v), t = 15 min): 1.3 × 10^4 | R: Reduction of viability ([9]; 0.06% (v/v), t = 30 min): 1.3 × 10^4 | Na: number of CFU/ml in the assay mixture ([9]; 0.125% (v/v), t = 5 min): 0.1 × 10^2 CFU/ml | R: Reduction of viability ([9]; 0.125% (v/v), t = 5 min): 3.6 × 10^4 | Na: number of CFU/ml in the assay mixture ([9]; 0.125% (v/v), t = 15 min): 0.1 × 10^2 CFU/ml | R: Reduction of viability ([9]; 0.125% (v/v), t = 15 min): 5.5 × 10^4 | Na: number of CFU/ml in the assay mixture ([9]; 0.125% (v/v), t = 30 min): 0.1 × 10^2 CFU/ml | R: Reduction of viability ([9]; 0.125% (v/v), t = 30 min): 5.5 × 10^4 | R: Reduction of viability ([9]; 0.25% (v/v), t = 5 min): ≧10^5 | Na: number of CFU/ml in the assay mixture ([9]; 0.25% (v/v), t = 15 min): 0 CFU/ml | R: Reduction of viability ([9]; 0.25% (v/v), t = 15 min): ≧10^5 | Na: number of CFU/ml in the assay mixture ([9]; 0.25% (v/v), t = 30 min): 0 CFU/ml | R: Reduction of viability ([9]; 0.25% (v/v), t = 30 min): ≧10^5

Source: patent US20100292343A1, “USE OF A DIALKYLKETONE PEROXIDE AS BIOCIDAL, STERILIZING, ANTISEPTIC, DISINFECTING AND ANTI-PARASITIC AGENT” (published 2010)
